Pooled drug test results. Numbers come from NIAID ChemDB, via PubChem.

Common to all: growth or infection tests; organism: HIV-1; method: luciferase; endpoint: inhibition

Blank or dashed fields: not listed here. Inhibition is in % at the dose shown (toxicity tests: loss of growth or viability). Neighbouring rows are from separate reports.

smiles | tested at | cell line | setting | strain | value
C/C=C(\C)C(=O)O[C@@H]1[C@@H](OC(=O)c2ccccc2)[C@]2(C)[C@@H](C(C)=O)CC[C@@]23O[C@]32CC[C@H]3C[C@@H](O[C@H]4C[C@@H](OC)C(O[C@@H]5OC(C)C(O[C@@H]6OC(CO)C(O)[C@H](O)C6O)[C@H](OC)C5O)C(C)O4)CC[C@]3(C)[C@@H]12 | 30 µM | SupT1 | pseudotyped |  | 8.26%
NC(=O)c1ncn([C@@H]2O[C@H](CO)[C@@H](O)[C@H]2O)n1 | 200 µg/mL | TZM-bl |  | BaL | >75%
Cc1c(C(=O)NN2CCCCC2)nn(-c2ccc(Cl)cc2Cl)c1-c1ccc(Cl)cc1 | 5 µM | Jurkat cells |  | NL4-3-Luc VSV pseudotyped | 26%
CC(C)[n+]1c[nH]c2c(NCc3ccc(-c4ccccn4)cc3)nc(NC[C@H](O)CO)nc21 | 0.05 µM | U1 |  |  | <25%
COC(=O)[C@@]12Oc3ccc(-c4ccc(O)c5c4O[C@@]4(C(=O)OC)C(=C5O)C(=O)C[C@@H](C)[C@@H]4O)c(O)c3C(O)=C1C(=O)C[C@H](C)[C@H]2O | 10 µM | TZM-bl |  | SF162 | 90.86%
CO[C@@H]1C(O)[C@H](O[C@@H]2C(C)O[C@@H](O[C@H]3CC[C@@]4(C)[C@@H](CC[C@@H]5[C@@H]4[C@H](OC(C)=O)[C@@H](OC(=O)c4ccccc4)[C@]4(C)[C@@H](C(C)=O)CC[C@]54O)C3)C[C@H]2OC)OC(C)[C@H]1O[C@@H]1OC(CO)[C@@H](O[C@@H]2OC(CO)[C@@H](O)[C@H](O)C2O)[C@H](O)C1O | 30 µM | SupT1 | pseudotyped |  | 36.87%
Cc1cn([C@H]2C[C@@H](N=[N+]=[N-])[C@@H](CO)O2)c(=O)[nH]c1=O | 711 µM | Jurkat cells | pseudotyped | NL4-3 | 90%
C/C=C(\C)C(=O)O[C@@H]1[C@@H](OC(C)=O)[C@H]2[C@@H](CC[C@H]3C[C@@H](O[C@H]4C[C@@H](OC)[C@H](O[C@@H]5OC(C)[C@@H](O[C@@H]6OC(CO)[C@@H](O)[C@H](O)C6O)[C@H](OC)C5O)C(C)O4)CC[C@@]32C)[C@@]2(O)CC[C@H](C(C)=O)[C@@]12C | 30 µM | SupT1 | pseudotyped |  | 14.12%
CC(C)(O)[C@H](O)COc1c2occc2cc2ccc(=O)oc12 | 50 µM | MT-2 |  | NL4-3 Recombinant VSV-pseudotyped | 60%
CCCCC/C=C\C/C=C\C/C=C\C/C=C\CCCC(=O)NCCc1ccc(O)c(O)c1 | 1 µM | PBMC |  | NL4-3-Luc VSV pseudotyped | 62%
Cc1cn([C@H]2C[C@H](N=[N+]=[N-])[C@@H](CO)O2)c(=O)[nH]c1=O | 0.01 µM | Jurkat cells |  | NL4-3 Recombinant | 65%
CC[C@H](CO)Nc1nc(NCc2ccc(-c3ccccn3)cc2)[n+]2[nH]cc(C(C)C)c2n1.O=C(O)/C=C/C(=O)O.O=C(O)/C=C/C(=O)O | 0.05 µM | U1 |  |  | <25%
Cc1cn([C@H]2C[C@H](N=[N+]=[N-])[C@@H](CO)O2)c(=O)[nH]c1=O | 0.2 µg/mL | U87 (CD4+ CCR5+) + U87 |  | CONB/pNL43E-Luc+ | 100%
COc1cc(OC)c2c(O)c3c(c(-c4c(OC)cc5cc(O)c6c(=O)cc(C)oc6c5c4OC)c2c1)OC(C)(O)CC3=O | 10 µM | TZM-bl |  | SF162 | 3.75%
C/C=C(\C)C(=O)O[C@H]1[C@H]2[C@@H](CC[C@H]3C[C@@H](O[C@H]4C[C@@H](OC)[C@H](O[C@@H]5OC(C)[C@@H](O[C@@H]6OC(CO)[C@@H](O)[C@H](O)C6O)[C@H](OC)C5O)C(C)O4)CC[C@@]32C)[C@@]2(O)CC[C@H](C(C)=O)[C@@]2(C)[C@@H]1OC(=O)/C(C)=C/C | 30 µM | SupT1 | pseudotyped |  | 24.78%
CC(C)=CCOc1c2occc2cc2ccc(=O)oc12 | 25 µM | MT-2 |  | NL4-3 Recombinant VSV-pseudotyped | 64%
C/C=C(\C)C(=O)O[C@@H]1[C@@H](OC(=O)c2ccccc2)[C@@H]2[C@@]3(C)CC[C@H](O[C@H]4C[C@@H](OC)[C@H](O[C@@H]5OC(C)[C@@H](O[C@@H]6OC(CO)[C@@H](O)[C@H](O)C6O)[C@H](OC)C5O)C(C)O4)CC3=CC[C@@]2(O)[C@@]2(O)CC[C@H](C(C)=O)[C@@]12C | 30 µM | SupT1 | pseudotyped |  | 53.48%
Cc1cc(O)cc2oc(=O)c3c(O)cc(O)cc3c12 | 300 µM | SupT1 |  | NL4-3 | 6%
O=C1Nc2ccc(Cl)cc2[C@@](C#CC2CC2)(C(F)(F)F)O1 | 30 µM | SupT1 | pseudotyped |  | 99.9%
CC[C@H](C)C(=O)O[C@@H]1C(=O)[C@@]2(OC(=O)C(C)C)[C@@]3(O)C[C@@]1(C)[C@H](CC(=O)OC)[C@@]3(C)[C@H]1CC[C@@]3(C)[C@H](c4ccoc4)OC(=O)C[C@]34O[C@]142 | 20 µM | SupT1 | pseudotyped |  | 79.75%